# Tests used:
# [1] = test system: purified IgGs from human sera; experiment: Ribosome display screening with purified human IgGs; assay type: binding; conditions: screen D: ribosome display, LSA250/1 library with IC sera (1686)
# [2] = test system: antibodies in human serum; experiment: Bacterial surface display library screening by MACS with biotinylated human serum; assay type: binding
# [3] = screen F: LSA50/6 library in lamB with patient sera P1 (1105)
Molecule,No. of selected clones per ORF and screen [1],No. of selected clones per ORF and screen ([2]; screen E: LSA50/6 library in lamB with IC sera 2 (454)),"No. of selected clones per ORF and screen [2, 3]","No. of selected clones per ORF and screen ([2]; screen H: LSA250/1 library in fhuA with patient sera 1 (IgA, 708))"
Clumping factor B [compound 2344],9,1,3,4
"Hyaluronate lyase (protein, UniProt Q59801 41-807, looked up, S. aureus antigenic protein) Hyaluronate lyase: DTNVQTPDYEKLRNTWLDVNYGYDKYDENNPDMKKKFDATEKEATNLLKEMKTESGRKYLWSGAETLETNSSHMTRTYRNIEKIAEAMRNPKTTLNTDENKKKVKDALEWLHKNAYGKEPDKKVKELSENFTKTTGKNTNLNWWDYEIGTPKSLTNTLILLNDQFSNEEKKKFTAPIKTFAPDSDKILSSVGKAELAKGGNLVDISKVKLLECIIEEDKDMMKKSIDSFNKVFTYVQDSATGKERNGFYKDGSYIDHQDVPYTGAYGVVLLEGISQMMPMIKETPFNDKTQNDTTLKSWIDDGFMPLIYKGEMMDLSRGRAISRENETSHSASATVMKSLLRLSDAMDDSTKAKYKKIVKSSVESDSSYKQNDYLNSYSDIDKMKSLMTDNSISKNGLTQQLKIYNDMDRVTYHNKDLDFAFGLSMTSKNVARYESINGENLKGWHTGAGMSYLYNSDVKHYHDNFWVTADMKRLSGTTTLDNEILKDTDDKKSSKTFVGGTKVDDQHASIGMDFENQDKTLTAKKSYFILNDKIVFLGTGIKSTDSSKNPVTTIENRKANGYTLYTDDKQTTNSDNQENNSVFLESTDTKKNIGYHFLNKPKITVKKESHTGKWKEINKSQKDTQKTDEYYEVTQKHSNSDNKYGYVLYPGLSKDVFKTKKDEVTVVKQEDDFHVVKDNESVWAGVNYSNSTQTFDINNTKVEVKAKGMFILKKKDDNTYECSFYNPESTNSASDIESKISMTGYSITNKNTSTSNESGVHFELTK",5,–,2,–

# Source: patent publication US7968297B2, “Method for identification, isolation and production of antigens to a specific pathogen” (Intercell AG, priority 2001, dated 2011)
